Structures are written as SMILES. Values joined by “and” are separate entries in the source; they are usually repeats but may differ in a detail not shown here. Equal values may be shown once.

In the series the test system is Huh7 cells expressing a subgenomic RNA replicon of Con1 (genotype 1b) sequence origin. The conditions noted are these: ratio CC50 / IC50.

In the case of `CNC1CCC(c2ccc(Cl)c(Cl)c2)c2ccsc21` (stereo not drawn) [Sertraline A-ring Thiophene], the Therapeutic index is given as 2.28.
Still for that read-out and setting: the same measure for `CN[C@H]1CC[C@@H](c2ccc(Cl)c(Cl)c2)c2ccc(C(=O)Nc3ccccn3)cc21` [Sertraline A-ring Pyridine Carboxamide, (5S,8S)-5-(3,4-dichlorophenyl)-8-(methylamino)-N-(pyridin-2-yl)-5,6,7,8-tetrahydronaphthalene-2-carboxamide]: 1.59.
Regarding `CSc1ccc(Oc2ccc(S(=O)(=O)NCc3ccccc3)cc2CN(C)C)cc1C` [Compound 14, N-benzyl-3-((dimethylamino)methyl)-4-(3-methyl-4-(methylthio)phenoxy)benzenesulfonamide], the TI is recorded as 1.48.
Take `CNC1CCC(c2ccc(Oc3ccccc3)cc2)c2ccccc21` (stereo not drawn) [Sertraline B-ring para-Phenoxy, N-methyl-4-(4-phenoxyphenyl)-1,2,3,4-tetrahydronaphthalen-1-amine]: the TI is 1.32 and the Therapeutic index is 1.95.
Taken in the same sequence, the figures for `CN[C@H]1CC[C@@H](c2ccc(Cl)c(Cl)c2)c2ccc(CO)cc21` [Sertraline A-Ring Ethanol, ((5S,8S)-5-(3,4-dichlorophenyl)-8-(methylamino)-5,6,7,8-tetrahydronaphthalen-2-yl)methanol] were 4.97 and 4.97.
Taken in the same sequence, the figures for `CSc1ccc(Oc2ccc(S(N)(=O)=O)cc2CO)cc1C` [Compound 47, 3-(hydroxymethyl)-4-(3-methyl-4-(methylthio)phenoxy)benzenesulfonamide] were greater than 2.76 and greater than 2.76.
With `CN[C@H]1CC[C@@H](c2ccc(Cl)c(Cl)c2)c2ccc(CSC)cc21` [Sertraline A-Ring Methylsulfide, (1S,4S)-4-(3,4-dichlorophenyl)-N-methyl-7-(methylthiomethyl)-1,2,3,4-tetrahydronaphthalen-1-amine], the Therapeutic index worked out at 1.48.
Same read-out and setting: the result for `CC(=O)N(C)c1ccc2c(c1)[C@@H](N(C)C)CC[C@H]2c1ccc(Cl)c(Cl)c1` reads 3.86.
For `CSc1ccc(Oc2ccc(S(N)(=O)=O)cc2CN(C)C)cc1` [Compound 46, 3-((dimethylamino)methyl)-4-(4-(methylthio)phenoxy)benzenesulfonamide], the TI was greater than 1.90 and the Therapeutic index is given as greater than 1.90.
Turning to `CN[C@H]1CC[C@@H](c2ccc(Cl)c(Cl)c2)c2ccc(NS(=O)(=O)c3cn(C)cn3)cc21` [N-((5S,8S)-5-(3,4-dichlorophenyl)-8-(methylamino)-5,6,7,8-tetrahydronaphthalen-2-yl)-1-methyl-1H-imidazole-4-sulfonamide], the Therapeutic index is reported as 1.75.
As for `CSc1ccc(Oc2ccc(N)cc2CN(C)C)cc1C` [Compound 53, 3-((dimethylamino)methyl)-4-(3-methyl-4-(methylthio)phenoxy)aniline], the TI is reported as greater than 2.21.
For the compound `N[C@H]1CC[C@@H](c2ccc(Cl)c(Cl)c2)c2ccccc21` [(1S,4S)-Desmethyl Sertraline, (1S,4S)-4-(3,4-dichlorophenyl)-1,2,3,4-tetrahydronaphthalen-1-amine], the TI turned out to be 1.2 and the Therapeutic index came to 1.2.
Regarding `CNCc1cc(S(N)(=O)=O)ccc1Oc1ccc(SC)cc1` [Compound 43, 3-((methylamino)methyl)-4-(4-(methylthio)phenoxy)benzenesulfonamide], the TI is on record as greater than 1.53.
Still for that read-out and setting: the result for `CNCc1ccccc1Oc1ccc(C(F)(F)F)cc1` [Compound 39, N-methyl-1-(2-(4-(trifluoromethyl)phenoxy)phenyl)methanamine] reads greater than 1.3.
Regarding `CN[C@H]1CC[C@@H](c2ccc(Cl)c(Cl)c2)c2ccc(NC(=O)c3ccccc3)cc21` [Sertraline A-Ring Reverse Benzamide, N-((5S,8S)-5-(3,4-dichlorophenyl)-8-(methylamino)-5,6,7,8-tetrahydronaphthalen-2-yl)benzamide], the Therapeutic index stood at 1.25.
Same read-out and setting: the same measure for `CN[C@H]1CC[C@@H](c2ccc(Cl)c(Cl)c2)c2ccc(C(=O)NC3CC3)cc21` [(5S,8S)—N-cyclopropyl-5-(3,4-dichlorophenyl)-8-(methylamino)-5,6,7,8-tetrahydronaphthalene-2-carboxamide]: 3.22.
For the compound `CN(C)Cc1ccccc1Oc1ccc(Br)cc1` [Compound 55, (2-(4-bromophenoxy)phenyl)-N,N-dimethylmethanamine], the TI is reported as greater than 1.67.
Regarding `CN[C@H]1CC[C@@H](c2ccc(Cl)c(Cl)c2)c2ccc(NS(=O)(=O)c3ccccc3)cc21` [N-((5S,8S)-5-(3,4-dichlorophenyl)-8-(methylamino)-5,6,7,8-tetrahydronaphthalen-2-yl)benzenesulfonamide], the Therapeutic index is 1.12 and 1.13.
Still for that read-out and setting: the result for `CNC(=O)c1ccc2c(c1)[C@@H](NC)CC[C@H]2c1ccc(Cl)c(Cl)c1` [Sertraline A-Ring Methyl Carboxamide, (5S,8S)-5-(3,4-dichlorophenyl)-N-methyl-8-(methylamino)-5,6,7,8-tetrahydronaphthalene-2-carboxamide] reads 3.93; that for `CN(C)[C@H]1CC[C@@H](c2ccc(Cl)c(Cl)c2)c2ccc(C(N)=O)cc21` [(5S,8S)-5-(3,4-dichlorophenyl)-8-(dimethylamino)-5,6,7,8-tetrahydronaphthalene-2-carboxamide], 8.29 and 6.99.
As to `CN(C)[C@H]1CC[C@@H](c2ccc(Cl)c(Cl)c2)c2ccc(NS(C)(=O)=O)cc21` [Dimethyl Sertraline Reverse Sulfonamide, N-((5S,8S)-5-(3,4-dichlorophenyl)-8-(dimethylamino)-5,6,7,8-tetrahydronaphthalen-2-yl)methanesulfonamide], the TI turned out to be 4.77 and the Therapeutic index is given as 4.77.
As for `CSc1ccc(Oc2ccc(Br)cc2CN(C)C)cc1` [Compound 41, 1-(5-bromo-2-(4-(methylthio)phenoxy)phenyl)-N,N-dimethylmethanamine], the TI is reported as greater than 1.94.
`CNCc1cc([N+](=O)[O-])ccc1Oc1ccc(SC)c(C)c1` [Compound 50, N-methyl-1-(2-(3-methyl-4-(methylthio)phenoxy)-5-nitrophenyl)methanamine]: the TI stood at 4.32.
`OC1CC[C@@H](c2ccc(Cl)c(Cl)c2)c2ccccc21` (stereo partly drawn) [Alcohol Sertraline-P1, (S)-4-(3,4-dichlorophenyl)-1,2,3,4-tetrahydronaphthalen-1-ol]: the Therapeutic index is recorded as greater than 2.04.
Turning to `CN[C@H]1CC[C@@H](c2ccc(Cl)c(Cl)c2)c2ccc(S(N)(=O)=O)cc21` [Sertraline Sulfonamide NH2, (5S,8S)-5-(3,4-dichlorophenyl)-8-(methylamino)-5,6,7,8-tetrahydronaphthalene-2-sulfonamide], the TI came to 2.74 and the Therapeutic index is 2.74.
With `CN[C@H]1CC[C@@H](c2ccc(Cl)c(Cl)c2)c2ccc(S(=O)(=O)N(C)C)cc21` [Sertraline N,N-dimethylsulfonamide, (5S,8S)-5-(3,4-dichlorophenyl)-N,N-dimethyl-8-(methylamino)-5,6,7,8-tetrahydronaphthalene-2-sulfonamide], the TI came out at 1.33 and the Therapeutic index is given as 1.33.
Regarding `CN[C@H]1CC[C@@H](c2ccc(Cl)c(Cl)c2)c2ccc(CS(C)(=O)=O)cc21` [(1S,4S)-4-(3,4-dichlorophenyl)-N-methyl-7-(methylsulfonylmethyl)-1,2,3,4-tetrahydronaphthalen-1-amine], the Therapeutic index was 7.72.
Turning to `CN[C@H]1CC[C@@H](c2ccc(Cl)c(Cl)c2)c2ccc(CNS(C)(=O)=O)cc21` [N-(((5S,8S)-5-(3,4-dichlorophenyl)-8-(methylamino)-5,6,7,8-tetrahydronaphthalen-2-yl)methyl)methanesulfonamide], the TI is reported as 3.45 and the Therapeutic index worked out at 3.45.
In the case of `CN[C@H]1CC[C@@H](c2ccc(Cl)c(Cl)c2)c2ccc(NS(=O)(=O)C3CC3)cc21` [N-((5S,8S)-5-(3,4-dichlorophenyl)-8-(methylamino)-5,6,7,8-tetrahydronaphthalen-2-yl)cyclopropanesulfonamide], the Therapeutic index was 1.32.
`CN[C@H]1CC[C@@H](c2ccc(Cl)c(Cl)c2)c2ccc(C(=O)OC)cc21` [Sertraline A-ring Methyl Ester, (5S,8S)-methyl 5-(3,4-dichlorophenyl)-8-(methylamino)-5,6,7,8-tetrahydronaphthalene-2-carboxylate]: the TI turned out to be 1.5 and the Therapeutic index amounted to 1.5.
For `CN(CCO)[C@H]1CC[C@@H](c2ccc(Cl)c(Cl)c2)c2ccccc21` [N-Ethanol Sertraline, 2-(((1S,4S)-4-(3,4-dichlorophenyl)-1,2,3,4-tetrahydronaphthalen-1-yl)(methyl)amino)ethanol], the Therapeutic index was determined as 6.38.
Take `CSc1ccc(Oc2ccc(C(N)=O)cc2CN(C)C)cc1C` [Compound 10, 3-((dimethylamino)methyl)-4-(3-methyl-4-(methylthio)phenoxy)benzamide]: the TI is given as greater than 1.86.

Source of the values: patent publication US20100009970A1, “COMPOSITIONS AND METHODS FOR TREATMENT OF VIRAL DISEASES” (Combinatorx (Singapore) Pte. Ltd., priority 2008, published 2010).
